A mixed list of measured activities; the numbers were collected in NIAID ChemDB.

Shared fields: toxicity to cultured cells; cells: MT-2; method: XTT; measure: CC50

Lines come from different laboratories, so protocols vary. CCn: concentration that lowers growth or viability of the cells by n%.

CC(C)(C)c1ccc(C(=O)N2CCN(C(=O)C(=O)c3c[nH]c4ccccc34)CC2)cc1 ; value: >10 µM
COc1ccccc1N1C(=O)S/C(=C\c2ccc(-c3cccc(C(=O)O)c3)o2)C1=O ; value: 56.2 µM
O=C(C(=O)N1CCN(C(=O)c2ccccc2O)CC1)c1c[nH]c2ccccc12 ; value: >10 µM
COc1ccc(N(C)C(=O)[C@H](Cc2ccccc2)NC(=O)[C@H](Cc2ccccc2)NC(=O)N[C@@H](Cc2ccccc2)C(=O)N[C@@H](Cc2ccccc2)C(=O)N(C)c2ccc(OC)cc2)cc1 ; value: 100 µM
COc1cc(/C=C2\C(=O)N(c3ccccc3)N=C2c2ccccc2)cc(Br)c1OCC(N)=O ; value: 65.66 µM
COc1ccc(N(C)C(=O)[C@H](Cc2ccccc2)NC(=O)c2cccc(S(=O)(=O)N[C@@H](Cc3ccccc3)C(=O)N(C)c3ccc(OC)cc3)c2)cc1 ; value: 100 µM
COc1ccc(CCNC(=O)c2ccc(C(=O)NCCc3ccc(OC)c(OC)c3)nc2)cc1OC ; value: 73.75 µM
Cc1ccc(C(=O)N2CCN(C(=O)C(=O)c3c[nH]c4ccccc34)CC2)cc1F ; value: >10 µM
Cn1nc(NS(C)(=O)=O)c2c(Cl)ccc(-n3c([C@H](Cc4cc(F)cc(F)c4)NC(=O)Cn4ccc5ccccc54)nc4nc(-c5ccccc5F)ccc4c3=O)c21 ; value: >0.5 µM
C/C(CC(=O)Nc1ccc(C(N)=O)cc1)=N\NC(=O)COc1ccc2ccccc2c1 ; value: >100 µM
CCOc1ccc(N(CC)C(=O)[C@H](Cc2ccccc2)NC(=O)NS(=O)(=O)N[C@@H](Cc2ccccc2)C(=O)N(CC)c2ccc(OCC)cc2)cc1 ; value: 33.3 µM
CCOc1cccc(-c2cc(C(=O)N/N=C/c3ccc(OC)c(CN4CCOCC4)c3)c3ccccc3n2)c1 ; value: 40.91 µM
O=C(C(=O)N1CCN(C(=O)c2c(F)cccc2F)CC1)c1c[nH]c2ccccc12 ; value: >10 µM
Cc1ccc(NC(=O)CN2C(=O)S/C(=C\c3ccc(-c4cc(C(=O)O)ccc4C)o3)C2=O)cc1C ; value: >326.4 µM
Cc1[nH]c2ccccc2c1C(=O)C(=O)N1CCN(C(=O)c2ccccc2)CC1 ; value: >10 µM
O=C(O)c1cc(-c2ccc(/C=C3\SC(=S)N(Cc4cccnc4)C3=O)o2)ccc1Cl ; value: >350.4 µM
COc1ccc(N(C)C(=O)[C@H](Cc2cc(F)cc(F)c2)NC(=O)COc2nc3ccccc3n(CC(=O)N[C@@H](Cc3cc(F)cc(F)c3)C(=O)N(C)c3ccc(OC)cc3)c2=O)cc1 ; value: 50 µM
CCOC(=O)C(C)N1C(=O)S/C(=C\c2ccc(-c3cc(C(=O)O)ccc3C)o2)C1=O ; value: >372.8 µM
O=C(C(=O)N1CCN(C(=O)c2ccccc2)CC1)c1c[nH]c2ccccc12 ; value: >10 µM

A second listing of 2 rows from above:

compound,value
COc1ccc(N(C)C(=O)[C@H](Cc2ccccc2)NC(=O)c2cccc(S(=O)(=O)N[C@@H](Cc3ccccc3)C(=O)N(C)c3ccc(OC)cc3)c2)cc1,100 µM
COc1ccc(N(C)C(=O)[C@H](Cc2cc(F)cc(F)c2)NC(=O)COc2nc3ccccc3n(CC(=O)N[C@@H](Cc3cc(F)cc(F)c3)C(=O)N(C)c3ccc(OC)cc3)c2=O)cc1,50 µM